This note sets out measurements from the supplement of paper PMC12637763.

The target in experiment [1] is antibody 10-1074. As to the kind of experiment: neutralization IC50; higher = virus less sensitive to the antibody. The procedure:
(§1)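 Pseudovirus bearing the Env chain mixed with antibody, from 50 µg/ml in fivefold dilutions, on TZM-bl reporter cells, in duplicate.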

Experiment [2] has as its target antibody 3BNC117. The experiment is described as above. As for the experimental part:
as §1

Experiment [3] has as its target antibody 10-1074. Put plainly: neutralization IC80; higher = virus less sensitive to the antibody. The procedure: as §1
Experiment [4] addresses antibody 3BNC117. The description is as above. The procedure: as §1

Substitutions are numbered along the chain they refer to. The list shows a part of the results. Env chains of viruses from a treatment-interruption trial, translated from the printed DNA. IC50 / IC80 of two broadly neutralizing antibodies; lower = more sensitive virus; >50 µg/ml means not reached and <0.001 µg/ml is below the lowest dose. No active / inactive call.

B1: HIV-1 Env, rebound clone, antibody arm (protein)
chain: MKVRGMKRNYQHLWGWGTMLLFWMIIMCKAAGNLWVTVYYGVPVWRDAETTLFCASDAKAYDKEVHNVWATHACVPTDPNPQEVRLENVTENFNMWENNMVEQMQTDIISLWDQSLKPCVKLTPLCVTLECTEPKLNSSTSNNSLSSTSNNSQYEEMKNCSFNMTTELRDKQKKVYSLFYKLDIVETDNNSSRYRLINCTTSTLTQACPKVTFEPIPIYYCAPAGFAILKCNDPQFNGTGPCTNVSTVQCTHGIKPVVSTQLLLNGSLAKEQVMIRSKNITDNSKTIIVQLKKPVNITCIRPGNNTRTSIRIGPGQAFYATGEITGDIRKAHCNVSRAEWNRTLQEISTQLQGYFNNKTIIFKNSSGGDLEVTTHSFNCGGEFFYCNTTKLFNSTWYGNETVINGTEASENITLQCRIKQIINMWQRVGQAMYAPPIRGEIRCESNITGLLLTRDGGGGNSSNNETFRPTGGDMRDNWRSELYKYKVVQVEPIGIAPTPAKRRVVEREKRAVGLGAAFLGFLGAAGSTMGAASLTLTVQARQLLSGIVQQQSNLLRAIEAQQHLLKLTVWGIKQLQARVLAVERYLRDQQLLGIWGCSGKLICTTAVPWNSSWSNKSYKDIWDNMTWMQWDKEVLNYTSIIYSLLEESQNQQEKNEQDLLALDKWASLWSWFDISKWLWYIKIFIMIVGGLIGLRIVFTVLSIINRVRQGYSPLSLQTLTPHPEEPDRPGRINEEGGEQDKGRSIRLVNGFLALAWDDLRSLCLFSYHRLRDFISIAARTVELLGRSSLKGLRLGWEGLKYLGNLLGYWSRELKNSAINLIDTIAIAVAGWTDRVIEIVQGSCRAIRNIPRRIRQGAEKALQ
For B1, the “neutralization IC50” value with antibody 10-1074 [1] was determined as 0.209 µg/mL; in the experiment with antibody 3BNC117 [2] it was 0.434 µg/mL. Further, the “neutralization IC80” value in the experiment with antibody 10-1074 [3] was 1.53 µg/mL; with antibody 3BNC117 [4], 1.44 µg/mL.

B2: HIV-1 Env, rebound clone, antibody arm (protein)
chain: B1 chain with F22L, S141N, T200N
As to B2, the “neutralization IC50” value with antibody 10-1074 [1] worked out at 0.109 µg/mL; with antibody 3BNC117 [2] it was 0.064 µg/mL. Also, the figures for the “neutralization IC80” value with antibody 10-1074 [3] and in the experiment with antibody 3BNC117 [4] were 0.594 µg/mL and 0.178 µg/mL, respectively.

B3: HIV-1 Env, rebound clone, antibody arm (protein)
chain: B1 chain with F22L, S141N, T200N, T201M
For B3, the “neutralization IC50” value with antibody 10-1074 [1] was found to be 0.362 µg/mL; in the experiment with antibody 3BNC117 [2], 0.108 µg/mL. In addition, the “neutralization IC80” value was 2.83 µg/mL with antibody 10-1074 [3] and 0.231 µg/mL in the experiment with antibody 3BNC117 [4].

B4: HIV-1 Env, rebound clone, antibody arm (protein)
chain: B1 chain with T200N, A778T
Consider B4, for which the “neutralization IC50” value was determined as 0.213 µg/mL with antibody 10-1074 [1] and 0.08 µg/mL in the experiment with antibody 3BNC117 [2]. Further, the “neutralization IC80” value with antibody 10-1074 [3] was found to be 2.38 µg/mL; with antibody 3BNC117 [4], 0.2 µg/mL.

B5: HIV-1 Env, rebound clone, antibody arm (protein)
chain: B1 chain with T200N, A532V, S667G
In the case of B5, the entries for the “neutralization IC50” value with antibody 10-1074 [1] and with antibody 3BNC117 [2] were 0.076 µg/mL and 0.043 µg/mL, respectively. Also, the results for the “neutralization IC80” value with antibody 10-1074 [3] and in the experiment with antibody 3BNC117 [4] were 0.559 µg/mL and 0.094 µg/mL, respectively.

B6: HIV-1 Env, rebound clone, antibody arm (protein)
chain: B1 chain with M686I
Turning to B6, the “neutralization IC50” value with antibody 10-1074 [1] turned out to be 0.158 µg/mL; with antibody 3BNC117 [2], 0.497 µg/mL. Further, the “neutralization IC80” value with antibody 10-1074 [3] came out at 1.35 µg/mL; with antibody 3BNC117 [4], 2.18 µg/mL.
